From ChEMBL document CHEMBL3407396, “Discovery of non-oxime reactivators using an in silico pharmacophore model of reactivators for DFP-inhibited acetylcholinesterase” (2015)
The source made the active and inactive calls. The calls are words filed in the database; no cut-off is given here.

Test system: Cavia porcellus
Assay: Efficacy against diisopropylfluorophosphate-induced neuropathology in guinea pigs assessed as seizure strength treated with 0.026 mg/kg, ip pyridostigmine bromide after 20 mins 8 mg/kg DFP followed by 2 mg/kg atropine methyl bromide treated before 13 to 16 mg/kg of compound auto-injection over …

Compound	Activity
CS(=O)(=O)SCCOC(=O)Nc1ccccc1	Active
C[n+]1ccccc1C=NO	inactive
O=[N+]([O-])c1ccc(OS(=O)(=O)c2ccccc2)c(Cl)c1	Active
NC(=O)CCNCCSC(=O)c1ccccc1	inactive
O=[N+]([O-])c1ccc(NS(=O)(=O)c2ccc(Cl)cc2)cc1	inactive
